From PubChem BioAssay AID485294 (National Center for Advancing Translational Sciences (NCATS), 2010) come the findings set out here.

Amino acid sequences for entries named in this document (tags omitted). A change or cut given only in a name is not applied to a line headed by its entry.
UniProt P00811: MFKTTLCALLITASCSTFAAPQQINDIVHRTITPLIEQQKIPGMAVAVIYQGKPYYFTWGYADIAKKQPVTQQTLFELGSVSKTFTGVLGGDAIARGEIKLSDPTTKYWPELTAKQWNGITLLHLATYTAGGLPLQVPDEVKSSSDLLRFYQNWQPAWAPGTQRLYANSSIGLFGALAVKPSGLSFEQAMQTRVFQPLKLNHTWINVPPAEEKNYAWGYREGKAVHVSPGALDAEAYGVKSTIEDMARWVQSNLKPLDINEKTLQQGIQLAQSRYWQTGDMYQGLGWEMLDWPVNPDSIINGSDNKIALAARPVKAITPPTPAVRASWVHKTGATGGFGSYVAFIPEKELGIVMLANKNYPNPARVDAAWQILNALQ

Each structure is given as a SMILES string. Values joined by “and” are separate entries in the source; they are usually repeats but may differ in a detail not shown here. Identical values can stand only once. This is a selection; strong and weak results do not stand in their true shares. Records with an inconclusive call do not appear. Active and inactive are the calls of the source. Calls come from the whole dose curve; as a rule, active = well fitted inhibition curve with a large enough effect; inconclusive = small, poorly fitted or top-dose-only effect; inactive = flat fitted curve, though single readings scatter.

The assay has as its target Beta-lactamase (Escherichia coli (strain K12)) (UniProt P00811). Put plainly: qHTS Inhibitors of AmpC Beta-Lactamase (assay with detergent).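 Note: 0% = no-compound wells and -100% = no-enzyme wells; nearly all actives have a fitted effect of over 25% in size.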 The settings on record: AmpC hydrolysis of nitrocefin, absorbance 480 nm, 0.01% Triton; at 114 µM (top of the series).
As to `CCOC(=O)Nc1ccc([As](=O)(O)O)c(O)c1`, the activity change, negative = inhibition is inactive: -2.17%. Consider `O=[N+]([O-])c1ccc(Nc2ccc(Oc3ccc([N+](=O)[O-])cc3[N+](=O)[O-])cc2)c([N+](=O)[O-])c1`, for which the activity change, negative = inhibition was inactive: -6.61%. In the case of `O=P(Nc1ccccn1)(c1cccc2ccccc12)c1cccc2ccccc12` it was inactive: 1.68%; in that of `Cc1cc(SC(NC=O)C(Cl)(Cl)Cl)ncn1` (stereo not given), inactive: 1.46%. In the case of `CCOC(=O)Nc1cccc([As](=O)(O)O)c1` it was inactive: -5.84%; in that of `O=C(Nc1cc([As](=O)(O)O)ccc1O)c1ccccc1`, inactive: -7.46%; in that of `O=[N+]([O-])c1cccc(NC2=NCC(CBr)S2)c1` (stereo not given), inactive: -0.554%. Turning to `O=C(O)CNc1ccc([As](=O)(O)O)cc1`, the activity change, negative = inhibition was inactive: -13.9%.

As for `CC(C)(C)C(=O)NC(Sc1ccncn1)C(Cl)(Cl)Cl` (stereo not given), the activity change, negative = inhibition was inactive: -1.11%.

On to `O=[N+]([O-])c1ncn(CCn2ncnc2[N+](=O)[O-])n1`, for which the activity change, negative = inhibition was inactive: 1.85%. In the case of `O=[N+]([O-])c1cccc2n[nH]nc12` it was inactive: 1.88%; in that of `CC(=O)N1C2C3N(C(C)=O)C1C1N(C(C)=O)C(C(N1C(C)=O)N3C(C)=O)N2C(C)=O`, inactive: -9.42%; in that of `Cc1ccc(NP(=O)(Oc2ccccc2)Oc2ccccc2)nc1`, inactive: 2.72%. Then `CCc1nc2c(n1)c1c(non1O)c1c2no[n+]1[O-]`, with inactive: -1.55%; and `COc1ccc(C2=NCC(CBr)S2)cc1` (stereo not given), with inactive: 1.99%. Then `CC(C)=N/N=C(\N)N[N+](=O)[O-]`, with inactive: -6.25%; and `CN(C)C(=O)OCCc1n(C)cc[n+]1C`, with inactive: -9.08%. On to `CC1CCN(C(=O)Oc2c(Cl)cc(Cl)c3cccnc23)CC1`, for which the activity change, negative = inhibition is inactive: 5.53%. Then `Nc1ccc([As](=O)(O)c2ccc(N)cc2)cc1`, with inactive: -6.99%; and `C[N+]1=C2C=CC=CC=C2SC12C([N+](=O)[O-])=CC([N+](=O)[O-])=C[C-]2[N+](=O)[O-]` (stereo not given), with inactive: 2.63%; and `CCN(/C(=N/P(=O)(N1CCOCC1)N1CCOCC1)N1CCOCC1)c1ccc(OC)cc1`, with inactive: 8.06%. Then `COc1ccccc1OP(=O)(Nc1ccc(C)cn1)Oc1ccccc1OC`, with inactive: 6.91%.

Turning to `Cc1ccc(OP(=O)(Nc2nccs2)Oc2ccc(C)cc2)cc1`, the activity change, negative = inhibition is inactive: 2.88%. On to `CN1CCCC(OC(=O)C(c2ccccc2)c2ccccc2)C1` (stereo not given), for which the activity change, negative = inhibition was inactive: -13.4%. In the case of `Clc1ccc(Cl)c(NC2=NCC(CBr)S2)c1` (stereo not given) it was inactive: 3.14%. In the case of `NC(=O)c1cc([N+](=O)[O-])cc([N+](=O)[O-])c1N` it was inactive: 2.24%; in that of `Nc1cc(N)c2nonc2c1[N+](=O)[O-]`, inactive: 5.28%; in that of `CC(C)CC(=O)NC(Sc1ccc(Cl)cc1)C(Cl)(Cl)Cl` (stereo not given), inactive: 0.413%. In the case of `Oc1ccccc1CNc1ccccn1` it was inactive: 10.3%; in that of `Cc1c2non([O-])c-2c(C)[n+](=O)[n+]1[O-]`, inactive: -13.2%; in that of `CCOP(=O)(Nc1ccccc1)OCC`, inactive: -12.5% and inactive: 6.02%. In the case of `Cc1ccc(NP(=O)(Oc2ccccc2F)Oc2ccccc2F)nc1`, the activity change, negative = inhibition is inactive: 5.76%. As for `CC(=O)Nc1ccc([As](=O)(O)O)cc1`, the activity change, negative = inhibition is inactive: 4.45%. Then `O=C(O)c1ccccc1[As](=O)(O)O`, with inactive: -12%; and `O=P(Nc1nc2ccc(Cl)cc2s1)(c1ccccc1)c1ccccc1`, with inactive: -2.59%; and `CCN(N=Nc1nonc1N)c1nonc1N`, with inactive: -10.7%. In the case of `Nc1cccc2ccc([As](=O)(O)O)cc12` it was inactive: -7.8%; in that of `O=[N+]([O-])c1cc([N+](=O)[O-])c(CCN2CCOCC2)c([N+](=O)[O-])c1`, inactive: -1.9%. In the case of `CCNC(=S)/N=C(\N)N[N+](=O)[O-]` it was inactive: -4.04%; in that of `O=C(NC1CCS(=O)(=O)C1)NP(=S)(Oc1ccccc1)Oc1ccccc1` (stereo not given), inactive: 0.932%; in that of `c1ccc(-c2nn[nH]n2)c(-c2nn[nH]n2)c1`, inactive: -6.71%.

Turning to `Cc1ccc(NP(=O)(Oc2cccc(C)c2)Oc2cccc(C)c2)nc1`, the activity change, negative = inhibition is inactive: 3.94%. In the case of `Cc1ccccc1OP(=O)(Nc1ccccn1)Oc1ccccc1C` it was inactive: 1.27%.

For `O=c1c2cc([N+](=O)[O-])ccc2[nH]c2c([N+](=O)[O-])cc([N+](=O)[O-])cc12`, the activity change, negative = inhibition was inactive: 2.14%.

`CN(C)C(=O)Oc1noc2ccccc12`: the activity change, negative = inhibition is inactive: -7.27%. Then `COC(=O)c1cc2c(s1)N=C(c1ccccc1)N(C)P2(=O)N1CCOCC1` (stereo not given), with inactive: -3.47%. Turning to `Cc1ccc(OP(=O)(Nc2ccccn2)Oc2ccc(C)cc2)cc1`, the activity change, negative = inhibition is inactive: -0.673%. In the case of `O=C(OC1CN2CCC1CC2)c1ccccc1` (stereo not given) it was inactive: -6.8%; in that of `CCC(=O)N1C2C3N(C(=O)CC)C1C1N(C(=O)CC)C(C(N1C(=O)CC)N3C(=O)CC)N2C(=O)CC`, inactive: -6.03%; in that of `CC(C)(C)C(=O)NC(Sc1ccccc1)C(Cl)(Cl)Cl` (stereo not given), inactive: -4.12%. In the case of `CCOc1ccc(C2=NCC(CBr)S2)cc1` (stereo not given) it was inactive: -0.672%; in that of `CC(=O)Nc1ccc([As](=O)(O)O)c(O)c1`, inactive: -5.45%; in that of `CC(=O)Nc1ccc(Oc2c([N+](=O)[O-])cc([N+](=O)[O-])cc2[N+](=O)[O-])cc1`, inactive: -0.228%. Then `CC(=O)c1ccc(N2CC2c2ccncc2)cc1` (stereo not given), with inactive: 0.467%. Turning to `Cc1ccccc1CN(C)C(=O)COC(=O)C(O)(c1ccccc1)c1ccccc1`, the activity change, negative = inhibition is inactive: -5.58%. In the case of `C[C@H]1OP(=O)(Oc2ccccc2)C[C@@H]2O[C@@H]21` (stereo not given in full) it was inactive: 3.83%. Take `C[C@@H]1C=CCP(=O)(Oc2ccccc2)O1` (stereo not given in full): the activity change, negative = inhibition was inactive: 6.07%. Then `c1nnnn1CCn1cnnn1`, with inactive: -6.23%; and `CC(C)C(=O)NC(Sc1ccccc1)C(Cl)(Cl)Cl` (stereo not given), with inactive: -11.4%. In the case of `O=P(Nc1nccs1)(c1ccccc1)c1ccccc1` it was inactive: 0.683%. Then `O=P(Nc1nc2ccccc2s1)(c1ccccc1)c1ccccc1`, with inactive: 2.22%. Regarding `C[C@H]1OP(=O)(Oc2ccccc2)[C@H](O)[C@H](O)[C@H]1N=[N+]=[N-]` (stereo not given in full), the activity change, negative = inhibition was inactive: 2.58%.

Turning to `O=P(Nc1ccccn1)(c1ccc(Br)cc1)c1ccc(Br)cc1`, the activity change, negative = inhibition was inactive: -8.36%. In the case of `CN(C)C1(CNC(=O)c2ccc(Cl)c(S(N)(=O)=O)c2)CCCCC1` it was inactive: -0.0597%; in that of `C(Cc1nn[nH]n1)Cc1nn[nH]n1`, inactive: -1.81%. With `Nc1ccc([As](=O)(O)c2ccc([N+](=O)[O-])cc2)cc1`, the activity change, negative = inhibition is inactive: -7.57%.

For `O=C(OC1CN2CCC1CC2)c1cccc(Cl)c1` (stereo not given), the activity change, negative = inhibition was inactive: 4.21%. In the case of `O=[N+]([O-])c1ccc(O)c(/C=N/Nc2ccc([N+](=O)[O-])cc2[N+](=O)[O-])c1` it was inactive: -9.11%; in that of `O=[N+]([O-])c1ncn(CCn2cnc([N+](=O)[O-])n2)n1`, inactive: 6.92%; in that of `CC(=O)NC(SC(=S)N(C)C)C(Cl)(Cl)Cl` (stereo not given), inactive: 2.99%.
